{"sequences": {"note": "The chains behind the UniProt entries cited, without tags or fusion partners. Where a name states a change or a piece, a line headed by the entry shows the natural chain unless it says otherwise.", "UniProt Q9H0U4": "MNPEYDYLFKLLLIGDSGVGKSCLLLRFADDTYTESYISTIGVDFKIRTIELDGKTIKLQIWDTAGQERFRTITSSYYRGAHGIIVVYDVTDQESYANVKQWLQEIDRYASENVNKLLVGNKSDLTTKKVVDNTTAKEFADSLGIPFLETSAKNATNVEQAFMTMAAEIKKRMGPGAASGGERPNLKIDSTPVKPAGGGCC"}, "source": "paper PMC7228754", "about": "“Legionella effector AnkX displaces the switch II region for Rab1b phosphocholination” (2020)", "target": "AnkXG108C:PC:Rab1b:GDP complex (Homo sapiens, UniProt Q9H0U4)", "assay": "X-ray crystal structure, […] A", "conditions": "GDP in the Rab1b nucleotide site; Rab1b covalently linked to AnkX", "data": [{"smiles": "Nc1nc2c(ncn2[C@@H]2O[C@H](COP(=O)(O)OP(=O)(O)O)[C@@H](O)[C@H]2O)c(=O)[nH]1", "values": [{"measurement": "X-ray crystal structure, 3.2 A", "result": "x-ray crystal structure of the covalent ternary AnkXG108C:PC:Rab1b:GDP complex"}]}]}
